Molecular target: the molecule itself
Test: cryo-EM structure

B1: EA1 full-length (EA1^FL) (natural protein)
chain: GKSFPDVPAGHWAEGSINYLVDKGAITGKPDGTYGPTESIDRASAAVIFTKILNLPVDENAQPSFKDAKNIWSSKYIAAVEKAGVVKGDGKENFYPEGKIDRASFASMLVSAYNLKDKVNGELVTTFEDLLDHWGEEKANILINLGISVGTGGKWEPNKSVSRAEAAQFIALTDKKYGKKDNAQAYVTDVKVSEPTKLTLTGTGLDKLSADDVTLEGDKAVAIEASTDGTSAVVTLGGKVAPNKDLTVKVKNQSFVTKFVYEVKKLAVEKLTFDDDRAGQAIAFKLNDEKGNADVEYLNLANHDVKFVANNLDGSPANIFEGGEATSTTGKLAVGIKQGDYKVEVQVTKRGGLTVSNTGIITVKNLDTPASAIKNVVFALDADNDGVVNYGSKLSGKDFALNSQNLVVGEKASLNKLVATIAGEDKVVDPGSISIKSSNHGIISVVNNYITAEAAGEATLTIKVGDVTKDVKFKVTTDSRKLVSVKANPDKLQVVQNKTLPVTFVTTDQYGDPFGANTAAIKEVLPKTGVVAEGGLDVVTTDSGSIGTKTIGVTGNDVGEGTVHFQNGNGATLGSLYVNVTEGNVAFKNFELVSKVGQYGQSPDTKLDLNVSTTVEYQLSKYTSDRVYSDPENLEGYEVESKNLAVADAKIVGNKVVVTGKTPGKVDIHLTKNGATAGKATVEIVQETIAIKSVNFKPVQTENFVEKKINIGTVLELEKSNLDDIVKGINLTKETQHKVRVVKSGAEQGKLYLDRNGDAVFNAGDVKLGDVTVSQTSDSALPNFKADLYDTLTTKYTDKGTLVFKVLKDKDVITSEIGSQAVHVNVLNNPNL
notes: source: E. coli BL21 (DE3), purified (pellet solubilised in 8 M urea, Ni IMAC, SEC)
  binding result: binds
